Compound potency records, mixed from different reports. Data source: NIAID ChemDB in PubChem.

Shared fields: whole-cell or culture tests; organism: HIV-1; measure: EC50

Blank or dashed fields: not listed here. ECn: concentration that inhibits the pathogen or its effect by n%. Conditions beyond the fields shown may differ between rows. Two numbers with a dash give a range or band.

compound | strain | mutations | cell line | read by | setting | value
CC(C)[C@H](NC(=O)[C@H](Cc1cccc2ccccc12)CS(=O)(=O)C(C)(C)C)C(=O)N[C@@H](Cc1ccccc1)[C@@H](O)[C@H](O)[C@H](Cc1ccccc1)NC(=O)[C@@H](NC(=O)[C@H](Cc1cccc2ccccc12)CS(=O)(=O)C(C)(C)C)C(C)C | D34 |  | PBLC | p24 |  | 0.003 µM
COc1ccccc1C(=O)N(C)c1ccc(Cl)c(C(=O)OC(C)C)c1 | RF |  | CEM + CEM-SS | cytopathic effect / XTT |  | >100 µM
C=C(C)[C@@H]1CC[C@]2(C(=O)NCCCCCCCC(=O)N[C@@H](CC(C)C)[C@@H](O)CC(=O)O)CC[C@]3(C)[C@H](CC[C@@H]4[C@@]5(C)CC[C@H](O)C(C)(C)[C@@H]5CC[C@]43C)[C@@H]12 | ELI |  | CEM + CEM-4 | cytopathic effect / MTT |  | >5 µM
Cc1occc1C(=S)Nc1ccc(Cl)c(C(=O)OC(C(C)C)C(C)C)c1 | RF |  | CEM + CEM-SS | cytopathic effect / XTT |  | 0.032 µM
Cc1nnc(C(=O)NC(C)(C)c2nc(C(=O)NCc3ccc(F)cc3)c(O)c(=O)n2C)o1 | LAI |  | HEK293T | p24 / ELISA |  | 0.0009–0.0018 µM
CC(C)=CCOC1(C(F)(F)F)OC(=O)Nc2ccc(F)cc21 |  | RT-K103N |  |  |  | <0.107 µM
C=CCO/N=C/c1cc(NC(=S)c2ccoc2C)ccc1Cl | RF |  | CEM + CEM-SS | cytopathic effect / XTT |  | 0.011 µM
CC(C)COC(=O)[C@@H](C)NP(=O)(CO[C@H](C)Cn1cnc2c(N)ncnc21)NC[C@H](C)C(=O)OC(C)C |  |  | MT4-GFP | fluorescence | 10% human serum | 15.7 µM
Cc1cc2c(C)cccc2c(-n2c(C)nnc2SCC(=O)Nc2ccccc2Br)c1C | NL4-3 | RT-Y188L | HeLa + HeLa-JC53 | luciferase |  | 0.16 µM
C/C=C/CSc1cc(NC(=S)c2ccsc2C)ccc1Cl | NL4-3 |  | CEM + CEM-SS | p24 |  | 0.08 µM
Cn1c2ccccc2c(=O)c2c(O)cccc21 | IIIB |  | MOLT-4/IIIB + MOLT-4 | p24 / ELISA |  | >2.1 µg/mL
CC(C)CN(C[C@@H](O)[C@H](Cc1ccccc1)NC(=O)O[C@H]1CO[C@H]2OCC[C@H]21)S(=O)(=O)c1ccc2c(c1)OCO2 | 97ZA003 |  | PHA-PBM | p24 |  | 0.0005 µM
CC(C)COC(=O)[C@H](C)NP(=O)(CO[C@H](C)Cn1cnc2c(N)ncnc21)NC[C@H](C)C(=O)OC(C)C |  |  | MT4-GFP | fluorescence | 50% human serum | 70.2 µM
CC(C)[C@H](NC(=O)CCS(=O)(=O)C(C)(C)C)C(=O)N[C@@H](Cc1ccccc1)[C@@H](O)[C@H](O)[C@H](Cc1ccccc1)NC(=O)[C@@H](NC(=O)CCS(=O)(=O)C(C)(C)C)C(C)C | D34 |  | PBLC | p24 |  | 1 µM
Cc1cscc1-c1c(C(OC(C)C)C(=O)O)c(C)nc2ccc(Cl)cc12 |  |  | C8166 | luciferase / reporter gene |  | <20 µM
Nc1c(C(=O)NCc2ccc(F)cc2F)c(=O)n(O)c2ncc(CCCCCO)cc12 |  |  | HOS | luciferase |  | <0.004 µM
CN1N=C(N)c2cn([C@@H]3O[C@H](COP(=O)(O)O)[C@@H](O)[C@H]3O)c3ncnc1c23 | 214 |  | CEM + CEM-SS | cytopathic effect / XTT |  | 0.08 µM
OCCC#Cc1nc(-c2ccc(F)cc2)c(-c2ccncc2)n1CCCc1ccccc1 | pNL4-3 |  | Jurkat cells | p24 |  | <1 µM
O=C(NCc1c(F)cc(F)cc1F)c1cn2c(c(O)c1=O)C(=O)N1[C@H]3CC[C@H](C3)O[C@@H]1C2 |  | AGC (GGGAGC) | HOS | luciferase |  | <0.003 µM
Cc1ncc(-c2ccc(N(C)CCOc3ccc(Cl)cc3F)nc2)c(N2CCC(C)(C)CC2)c1[C@H](OC(C)(C)C)C(=O)O | NL4-3 |  | MT-2 | luminescence |  | 0.0025 µM
CC(C)OC(=O)CCNP(=O)(CO[C@H](C)Cn1cnc2c(N)ncnc21)N[C@@H](C)C(=O)OC(C)C |  |  | MT4-GFP | fluorescence | 50% human serum | 44.1 µM
C[C@H]1CO[C@@H]2Cn3cc(C(=O)NCc4ccc(F)cc4F)c(=O)c(O)c3C(=O)N12 |  | AGC (GGGAGC) | HOS | luciferase |  | <0.003 µM
Cc1ccsc1-c1c(C(OC(C)C)C(=O)O)c(C)nc2ccc(Cl)cc12 |  |  | C8166 | luciferase / reporter gene |  | <20 µM
O=C1Nc2ccc(Cl)cc2C(OCC=C(Cl)Cl)(C(F)(F)F)O1 |  | RT-K103N |  |  |  | <0.242 µM
COc1cnc(-c2ccc(O)cc2)c2[nH]cc(C(=O)C(=O)N3CCC(=C(C#N)c4ccccc4)CC3)c12 |  |  | HeLa | luciferase |  | <1 µM
CC(C)[C@H](NC(=O)[C@H](Cc1ccccc1)NC(=O)[C@H](O)[C@@H](O)[C@H](O)[C@H](O)CO)C(=O)N[C@@H](Cc1ccccc1)[C@@H](O)[C@H](O)[C@H](Cc1ccccc1)NC(=O)[C@@H](NC(=O)[C@H](Cc1ccccc1)NC(=O)[C@H](O)[C@@H](O)[C@H](O)[C@H](O)CO)C(C)C | D34 |  | PBLC | p24 |  | >25 µM
COC(C(=O)O)c1c(C)nc2ccc(Cl)cc2c1-c1ccc(C)cc1 |  |  | C8166 | luciferase / reporter gene |  | <20 µM
Cc1ncc(-c2ccc(OCCCCC(F)(F)F)cn2)c(N2CCC(C)(C)CC2)c1[C@H](OC(C)(C)C)C(=O)O | NL4-3 |  | MT-2 | luminescence |  | 0.0015 µM
O=C(O)c1cc(C(c2ccc(O)c(C(=O)O)c2)c2ccc(O)c(C(=O)O)c2)ccc1O | IIIB |  | MOLT-4/HUT-78 | syncytia |  | 2 µg/mL
CCCc1cc(=O)oc2c3c(c4c(c12)OC(C)(C)CC4)O[C@@H](C)[C@H](C)[C@@H]3O | NL4-3 | RT-L74V | CEM + CEM-SS | cytopathic effect / XTT |  | 0.6 µM
CC(C)OC(=O)C[C@H](N[P@](=O)(CO[C@H](C)Cn1cnc2c(N)ncnc21)NC(C)(C)C(=O)OC(C)C)C(C)C |  |  | MT4-GFP | fluorescence | 10% human serum | 590 µM
CC(C)[C@H](NC(=O)[C@H](Cc1cc[n+]([O-])cc1)CS(=O)(=O)C(C)(C)C)C(=O)N[C@@H](Cc1ccccc1)[C@@H](O)[C@H](O)[C@H](Cc1ccccc1)NC(=O)[C@@H](NC(=O)[C@H](Cc1cc[n+]([O-])cc1)CS(=O)(=O)C(C)(C)C)C(C)C | D34 |  | PBLC | p24 |  | 50 µM
COc1cnc(-c2cnccn2)c2[nH]cc(C(=O)C(=O)N3CCC(=C(c4ccccc4)c4csc(C)n4)CC3)c12 |  |  | HeLa | luciferase |  | <1 µM
CCCCCOC(=O)C(C)(C)N[P@](=O)(CO[C@H](C)Cn1cnc2c(N)ncnc21)N[C@@H](CC(=O)OC(C)C)C(C)C |  |  | MT4-GFP | fluorescence | 10% human serum | 0.8 µM
CC(O)[C@H](NC(=O)[C@H](Cc1cccc2ccccc12)CS(=O)(=O)C(C)(C)C)C(=O)N[C@@H](Cc1ccccc1)[C@@H](O)[C@H](O)[C@H](Cc1ccccc1)NC(=O)[C@@H](NC(=O)[C@H](Cc1cccc2ccccc12)CS(=O)(=O)C(C)(C)C)C(C)O | D34 |  | PBLC | p24 |  | 2 µM
Cc1cc(-n2c(C)nnc2SCC(=O)Nc2ccccc2Br)c2ccccc2c1C | NL4-3 | RT-K103N Y181C | HeLa + HeLa-JC53 | luciferase |  | 0.031 µM
CCCCCOC(=O)C(C)(C)NP(=O)(CO[C@H](C)Cn1cnc2c(N)ncnc21)N[C@H](C)CC(=O)OC(C)C |  |  | MT4-GFP | fluorescence | 10% human serum | 1.5 µM
C[C@@H]1CCO[C@H]2Cn3cc(C(=O)NCc4ccc(F)cc4F)c(=O)c(O)c3C(=O)N12 |  | AGC (GGGAGC) | HOS | luciferase |  | <0.003 µM
COc1cnc(-n2cnc(C)n2)c2[nH]cc(C(=O)C(=O)N3CCN(C(=O)c4ccccc4)CC3)c12 | NL4-3 |  | U-87 | luciferase |  | 0.0024 µM
CC(C)OC(=O)[C@@H](C)CNP(=O)(CO[C@H](C)Cn1cnc2c(N)ncnc21)N[C@H](C)C(=O)OC(C)C |  |  | MT4-GFP | fluorescence | 50% human serum | 494.3 µM
Cc1occc1C(=S)Nc1ccc(Cl)c(C(=O)OC(C)C)c1 | 4xAZT(RT-D67N K70R T215Y K219Q) | RT-D67N K70R T215Y K219Q | CEM + CEM-SS | cytopathic effect / XTT |  | 0.03 µM
Nc1nc(Cl)c2ncn([C@@H]3O[C@H](CO)C[C@@H]3F)c2n1 | LAI |  | PBL(PHA STIM.) + PBL | p24 |  | <3.8 µM
O=C1Nc2ccc(F)cc2C(C#Cc2cccs2)(C(F)(F)F)O1 |  |  |  |  |  | <0.00293 µM
COc1ncc(OC)c2c(C(=O)C(=O)N3CCC(=Cc4nc(-c5ccccc5)cs4)CC3)c[nH]c12 |  |  | HeLa | luciferase |  | >5 µM
COc1ccc(-c2c(C(OC(C)C)C(=O)O)c(C)nc3ccc(Cl)cc23)cc1 |  |  | C8166 | luciferase / reporter gene |  | <20 µM
Cc1cc(OCCOc2ccc(-c3cnc(C)c([C@H](OC(C)(C)C)C(=O)O)c3N3CCC(C)(C)CC3)nc2)ccc1F | NL4-3 |  | MT-2 | luminescence |  | 0.0009 µM
COc1ncc(OC)c2c(C(=O)C(=O)N3CCN(C(=O)c4ccccc4)CC3)c[nH]c12 | SF162.LS |  | PM1 | p24 / ELISA |  | 0.0047 µM
CCc1ccc(-c2c([C@H](OC(C)(C)C)C(=O)O)c(C)nc3ccccc23)cc1 |  |  | C8166 | luciferase / reporter gene |  | <20 µM
Clc1cc(CN2CCCNCCNCCCNCC2)cc(Cl)n1 | BAL R5 |  | U87-CD4-CCR5 + U87 | p24 |  | 17.6 µM
CC=CCOc1cc(NC(=S)c2ccoc2C)ccc1OC | NL4-3 | RT-K101E | CEM + CEM-SS | cytopathic effect / XTT |  | 0.6 µM
O=C(O)c1cc(C(O)(c2ccc(O)c(C(=O)O)c2)c2ccc(O)c(C(=O)O)c2)ccc1O | IIIB |  | MOLT-4/HUT-78 | syncytia |  | >100 µg/mL
COc1cnc(-n2cnc(C)n2)c2[nH]cc(C(=O)C(=O)N3CCC(=C(c4ccccc4)c4n[nH]c(=O)o4)CC3)c12 |  |  | HeLa | luciferase |  | <1 µM
CC(C)[C@H](NC(=O)[C@H](Cc1cccc2ccccc12)CS(=O)(=O)C(C)(C)C)C(=O)N[C@@H](Cc1ccc2c(c1)OCO2)[C@@H](O)[C@H](O)[C@H](Cc1ccc2c(c1)OCO2)NC(=O)[C@@H](NC(=O)[C@H](Cc1cccc2ccccc12)CS(=O)(=O)C(C)(C)C)C(C)C | D34 |  | PBLC | p24 |  | 0.02 µM
Cc1nnc(SCC(=O)Nc2ccccc2Br)n1-c1ccc(Cl)c2ccccc12 | NL4-3 | RT-K103N Y181C | HeLa + HeLa-JC53 | luciferase |  | 0.13 µM
Cc1cc(F)ccc1OCCN(C)c1ccc(-c2cnc(C)c([C@H](OC(C)(C)C)C(=O)O)c2N2CCC(C)(C)CC2)nc1 | NL4-3 |  | MT-2 | luminescence |  | 0.0013 µM
COc1cnc(-n2cnc(C)n2)c2[nH]cc(C(=O)C(=O)N3CCC(=C(c4ccccc4)c4nnc(C5CC5)o4)CC3)c12 |  |  | HeLa | luciferase |  | <1 µM
Cc1ccc(-c2ccc3c(c2)C=C(C(=O)Nc2ccc(C[N+](C)(C)C4CCOCC4)cc2)CCC3)cc1 | COT2 CLADE C |  | PBMC | p24 |  | <1 µM
O=C(O)c1cccc(Cc2cccc(C(=O)O)c2O)c1O | IIIB |  | MOLT-4/HUT-78 | syncytia |  | 30 µg/mL
Cc1cc(S(N)(=O)=O)ccc1NC(=O)COc1ccc(Cl)cc1C(=O)c1cc(F)cc(C(F)(F)F)c1 | IIIB | RT-P236L | HELA MAGI | luciferase |  | 0.0051 µM
Nc1nc2c(ncn2[C@@H]2O[C@H](CO)C[C@@H]2F)c(=O)[nH]1 | LAI |  | PBL(PHA STIM.) + PBL | p24 |  | <7.1 µM
Cc1c(OCC2CCC2)c2cc(F)ccc2[nH]c1=O | NNRTI-resistant (RT K103N Y181C) | RT-K103N Y181C | HeLa + HeLa-MAGI | β-galactosidase |  | >2 µM
Cc1cccc(-c2c(C(OC(C)C)C(=O)O)c(C)nc3ccc(Cl)cc23)c1 |  |  | C8166 | luciferase / reporter gene |  | <20 µM
Cc1ccc2c(-n3c(C)nnc3SCC(=O)Nc3ccccc3Br)ccc(C)c2c1 | NL4-3 | RT-Y188L | HeLa + HeLa-JC53 | luciferase |  | 0.15 µM
CCCc1c(OC2CCCCC2)c2cc(Cl)ccc2[nH]c1=O | NNRTI-resistant (RT K103N) | RT-K103N | HeLa + HeLa-MAGI | β-galactosidase |  | >2 µM
Cc1ncc(-c2ccc(OCCn3nc(C(F)F)c4c3C(F)(F)[C@H]3C[C@@H]43)cn2)c(N2CCC(C)(C)CC2)c1[C@H](OC(C)(C)C)C(=O)O | NL4-3 |  | MT-2 | luminescence |  | 0.0035 µM
Cc1occc1C(=S)Nc1ccc(Cl)c(C(=O)OCC2CC2)c1 | NL4-3 | RT-V108I | CEM + CEM-SS | cytopathic effect / XTT |  | 0.08 µM
O=C1Nc2ccc(F)cc2C(C#Cc2ccco2)(C(F)(F)F)O1 |  |  |  |  |  | <0.00258 µM
CNC(=O)c1ccc(-c2ncc(OC)c3c(C(=O)C(=O)N4CCC(=C(C#N)c5ccccc5)CC4)c[nH]c23)cc1 |  |  | HeLa | luciferase |  | <1 µM
Cc1ncc(-c2ccc(OCCOc3ccccc3)cn2)c(N2CCC(C)(C)CC2)c1[C@H](OC(C)(C)C)C(=O)O | NL4-3 |  | MT-2 | luminescence |  | 0.0012 µM